# B1: BCY15343 (peptide)
# peptide: ACPYVAGRGTCLLCA
# modifications: not checked
# Biological target: wild-type (WT) S1 domain of the SARS-COV-2 Spike Protein (Severe acute respiratory syndrome coronavirus 2, UniProt P0DTC2)
# Assay: not given
# Assay type: binding
# Conditions: not given
row,Molecule,Kd [nM]
1,A-(SEQ ID NO: 85)-A [BCY16319],726
2,Ac-(SEQ ID NO: 88)-A-[Sar6]-[KFl] [BCY16679],339
3,A-(SEQ ID NO: 83)-A [BCY16316],> 1000
4,A-(SEQ ID NO: 22)-A-[Sar6]-[KFl] [BCY15310],199
5,A-(SEQ ID NO: 91)-A [BCY16536],424
6,A-(SEQ ID NO: 86)-A [BCY16320],360
7,A-(SEQ ID NO: 37)-A-[Sar6]-[KFl] [BCY15318],717
8,A-(SEQ ID NO: 114)-A [BCY16542],511
9,Ac-A-(SEQ ID NO: 22)-A [BCY16538],229
10,A-(SEQ ID NO: 80)-A [BCY16313],396
11,A-(SEQ ID NO: 89)-A [BCY16541],> 1000
12,A-(SEQ ID NO: 81)-A [BCY16314],518
13,Ac-(SEQ ID NO: 24) [BCY16544],921
14,A-(SEQ ID NO: 113)-A [BCY16543],> 1000
15,Ac-A-(SEQ ID NO: 37)-A [BCY16322],722
16,A-(SEQ ID NO: 82)-A [BCY16315],777
17,A-(SEQ ID NO: 90)-A [BCY16535],> 1000
18,A-(SEQ ID NO: 92)-A [BCY16537],> 963
19,A-(SEQ ID NO: 87)-A [BCY16321],991
20,A-(SEQ ID NO: 84)-A [BCY16318],602
21,Ac-A-(SEQ ID NO: 24)-A [BCY16545],641

# Biological target: Biotinylated SARS-CoV-2 (COVID-19) S protein RBD, His, Avitag ™ (Severe acute respiratory syndrome coronavirus 2, UniProt P0DTC2)
# Assay: not given
# Assay type: binding
# Conditions: read-out: Geomean Average KD
row,Molecule,Kd [nM]
1,Ac-(SEQ ID NO: 197) [BCY19543],2940
2,Ac-(SEQ ID NO: 186) [BCY19309],186
3,Ac-(SEQ ID NO: 205)-[K(PYA)] [BCY19638],29.5
4,Ac-(SEQ ID NO: 188) [BCY19533],6510
5,Ac-(SEQ ID NO: 201) [BCY19547],9160
6,Ac-(SEQ ID NO: 202) [BCY19548],2990
7,Ac-(SEQ ID NO: 189) [BCY19534],5230
8,Ac-(SEQ ID NO: 209)-[K(PYA)] [BCY19654],115
9,Ac-(SEQ ID NO: 193) [BCY19538],2100
10,Ac-(SEQ ID NO: 203)-[K(PYA)] [BCY19599],61.6
11,Ac-(SEQ ID NO: 194) [BCY19539],2080
12,Ac-(SEQ ID NO: 211)-[K(PYA)] [BCY19658],96.6
13,Ac-(SEQ ID NO: 199) [BCY19545],1570
14,Ac-(SEQ ID NO: 198) [BCY19544],6650
15,Ac-(SEQ ID NO: 195) [BCY19541],2170
16,Ac-(SEQ ID NO: 190) [BCY19535],565
17,Ac-(SEQ ID NO: 200) [BCY19546],3520
18,Ac-(SEQ ID NO: 192) [BCY19537],2650
19,Ac-(SEQ ID NO: 191) [BCY19536],7570
20,Ac-(SEQ ID NO: 210)-[K(PYA)] [BCY19655],169
21,Ac-(SEQ ID NO: 196) [BCY19542],1950
22,Ac-(SEQ ID NO: 206)-[K(PYA)] [BCY19639],72

# Biological target: Biotinylated 2019-nCoV (COVID-19) S1 protein (16-685), His, Avitag (SARS-CoV-2), P0DTC2
# Assay: SPR, Biacore T200, geomean
# Conditions: not given
row,Molecule,Kd [nM]
1,B1,2240

# — patent publication US20250325672A1 (priority 2020, published 2025)
